Measured values from PubChem BioAssay AID1224855 (National Center for Advancing Translational Sciences (NCATS), 2016).
Only a part is listed here, and it is no random draw. Inconclusive results are not listed. Where a call stands in place of a potency, no number is given. Active and inactive are the calls of the source. Calls come from the whole dose curve; as a rule, active = well fitted inhibition curve with a large enough effect; inconclusive = small, poorly fitted or top-dose-only effect; inactive = no such curve, though single readings can be large or run the other way.

Assay: Confirmation assay for measurement of the activity of small molecule inhibitors on Zika virus induced Caspase-3 activity in human iPSC derived neural progenitor cells (hNPCs)
Excerpt: National Center for Advancing Translational Sciences [NCATS] Johns Hopkins University School of Medicine Florida State University Assay Overview: Increase in the Caspase-3 activity indicates an activation of apoptosis cell death pathway caused by Zika virus infection in certain types of neuronal cells including human neural progenitor cells (hNPCs), astrocytes, and astrocytoma cell line (SNB-19). This cell-based caspase-3 activity assay measures the increased caspase-3 activity in the human iPSC derived neural progenitor cells (hNPCs) after a 6-hour Zika virus infection with a luminescence readout. A decrease in the luminescence signal in this assay by small molecule treatment indicates an inhibitory effect of that small molecule on the Zika virus induced caspase-3 activity that may correlate with its effect on reduction of Zika virus caused cell death.
Assay Protocol Summary: The medium for hNPCs consists of DMEM/F12, N2 supplement (ThermoFisher, Cat.# 17502048), NEAA (ThermoFisher, Cat. # 11140050), 2 ug/ml heparin, 2 uM cyclopamine, and B27 (ThermoFisher, Cat. # 17504044). […] The luminescence intensity of the assay plates was measured using a ViewLux plate reader (PerkinElmer). […] The percentage inhibitions of the increased Caspase-3 activity by small molecule inhibitors were then calculated.

| Structure (SMILES) | Potency |
| --- | --- |
| CCOP(=O)(CC)Oc1ccc([N+](=O)[O-])cc1 (configuration not stated) | inactive |
| C/C1=C2N=C(/C=C3N=C(/C(C)=C4\[N-][C@@](C)([C@@H]5N=C1[C@](C)(CCC(=O)NC[C@@H](C)OP(=O)([O-])O[C@H]1[C@@H](O)[C@@H](n6cnc7cc(C)c(C)cc76)O[C@@H]1CO)[C@H]5CC(N)=O)[C@@](C)(CC(N)=O)[C@@H]4CCC(N)=O)[C@@](C)(CC(N)=O)[C@@H]\3CCC(N)=O)C(C)(C)[C@@H]/2CCC(N)=O.[C-]#N.[Co+3] | active: 6.9 µM |
